One test has as its target T. californica nAChR (Tetronarce californica, UniProt P02710+P02714+P02718). Put plainly: Radioligand assay, competition with [125I]-αBgt for T. californica electric organ membranes. The note with it: inhibition of [125I]-αBgt binding; 95% CI in the row below.
In a further test the target is A. californica AChBP (Aplysia californica, UniProt Q8WSF8). Put plainly: Radioligand assay, competition with [125I]-αBgt for A. californica AChBP. The note with it: mean ± SEM; [125I]-αBgt binding.

Amino acid sequences for entries named in this document (tags omitted). A change or cut given only in a name is not applied to a line headed by its entry. Residues count along the entry.
UniProt P02710: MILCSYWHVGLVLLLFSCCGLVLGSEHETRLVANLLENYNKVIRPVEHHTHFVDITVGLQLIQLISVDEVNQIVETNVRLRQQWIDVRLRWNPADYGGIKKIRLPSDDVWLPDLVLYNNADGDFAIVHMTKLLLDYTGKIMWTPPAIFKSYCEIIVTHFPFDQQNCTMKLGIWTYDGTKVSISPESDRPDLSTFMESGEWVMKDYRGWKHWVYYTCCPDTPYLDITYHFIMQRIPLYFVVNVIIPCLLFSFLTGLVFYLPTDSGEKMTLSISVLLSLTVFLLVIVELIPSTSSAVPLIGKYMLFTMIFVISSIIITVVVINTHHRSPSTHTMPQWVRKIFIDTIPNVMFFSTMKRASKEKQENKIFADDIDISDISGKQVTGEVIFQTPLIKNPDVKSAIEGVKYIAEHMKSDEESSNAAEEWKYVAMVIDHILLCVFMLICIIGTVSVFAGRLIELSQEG
UniProt P02714: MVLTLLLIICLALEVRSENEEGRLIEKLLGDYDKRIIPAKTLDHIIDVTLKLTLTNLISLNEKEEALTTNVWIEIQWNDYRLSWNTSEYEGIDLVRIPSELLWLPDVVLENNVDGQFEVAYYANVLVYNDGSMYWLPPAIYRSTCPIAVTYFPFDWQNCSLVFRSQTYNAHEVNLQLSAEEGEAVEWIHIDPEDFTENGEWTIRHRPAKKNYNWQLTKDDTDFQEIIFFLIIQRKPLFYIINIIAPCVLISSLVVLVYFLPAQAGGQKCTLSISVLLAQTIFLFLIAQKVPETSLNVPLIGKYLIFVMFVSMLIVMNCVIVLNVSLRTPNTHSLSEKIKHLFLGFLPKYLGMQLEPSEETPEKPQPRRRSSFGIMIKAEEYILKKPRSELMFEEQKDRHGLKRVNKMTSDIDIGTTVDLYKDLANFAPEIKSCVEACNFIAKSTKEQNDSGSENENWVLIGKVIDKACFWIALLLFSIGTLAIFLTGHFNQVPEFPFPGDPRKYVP
UniProt P02718: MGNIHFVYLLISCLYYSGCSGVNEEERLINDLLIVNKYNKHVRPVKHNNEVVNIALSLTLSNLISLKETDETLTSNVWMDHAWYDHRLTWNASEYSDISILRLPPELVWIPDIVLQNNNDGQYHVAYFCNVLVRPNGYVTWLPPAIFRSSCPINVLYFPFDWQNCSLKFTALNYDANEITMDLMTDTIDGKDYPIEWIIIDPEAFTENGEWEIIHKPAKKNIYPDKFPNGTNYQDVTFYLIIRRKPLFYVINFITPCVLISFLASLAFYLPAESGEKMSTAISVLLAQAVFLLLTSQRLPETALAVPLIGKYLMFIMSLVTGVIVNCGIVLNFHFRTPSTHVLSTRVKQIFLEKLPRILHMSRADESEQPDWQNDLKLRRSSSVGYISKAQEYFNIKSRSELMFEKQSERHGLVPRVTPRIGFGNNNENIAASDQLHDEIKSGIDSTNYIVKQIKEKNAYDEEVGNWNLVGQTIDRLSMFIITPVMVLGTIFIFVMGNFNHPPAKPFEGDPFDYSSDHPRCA
UniProt Q8WSF8, 18-236 limits assumed: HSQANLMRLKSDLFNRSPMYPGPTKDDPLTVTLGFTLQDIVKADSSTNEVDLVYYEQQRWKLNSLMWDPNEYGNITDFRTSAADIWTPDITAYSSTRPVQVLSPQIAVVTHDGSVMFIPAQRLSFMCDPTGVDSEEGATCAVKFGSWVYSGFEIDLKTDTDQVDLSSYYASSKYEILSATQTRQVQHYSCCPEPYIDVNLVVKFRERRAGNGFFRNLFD

The IC50 is the point on the concentration scale where inhibition reaches its midpoint. Higher therefore signals weaker potency in that assay. For the compound `COc1cc2c3cc1Oc1cc(ccc1O)C[C@@H]1c4c(cc(OC)c(O)c4Oc4ccc(cc4)C[C@@H]3N(C)CC2)CC[N+]1(C)C` [d-TC, d-tubocurarine, reference compound], the IC50 at T. californica nAChR was 390 nM. For the same compound, the “nH (Hill slope)” value at A. californica AChBP is reported as -1.05 ± 0.02.
